PubChem BioAssay AID1259414, Drosophila RNAi Screening Center – 2018

Aim: 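Genome-wide screen for host control of endosymbiont load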 (primary screen)
System: Drosophila JW18 cells infected with Wolbachia
Reagents: long dsRNA against Drosophila genes, 0.25 µg dsRNA per well of a 384-well plate
Time to read-out: 5 days
Challenge: cells persistently infected with Wolbachia before knock-down; no added drug
Measurement: 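Imaged fluorescence in situ signal for Wolbachia 23S rRNA per DAPI-counted host cell, given as a robust z-score within each plate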
Direction: Wolbachia per cell robust z: higher = more Wolbachia per host cell than the plate typical
Hit rule: 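Hit when robust z is 1.5 or more, or -1.5 or less, in at least two of three replicates; excludes dsRNAs with several or no targets, genes not expressed in JW18 and well A1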
The screen tested about 24,000 reagents; this is a random part of those with a known target gene and a result. Over the whole deposit, about 1,210 (5%) were called active. 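Inactive calls also include excluded dsRNAs with several or no targets, genes unexpressed in JW18, and well A1, regardless of score.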 Reagents against one gene are numbered here.

Wolbachia per cell robust z, rep 1	Wolbachia per cell robust z, rep 2	Wolbachia per cell robust z, rep 3	outcome	Target gene	reagent
0.442	-1.63	-1.33	inactive	Ino80 (INO80 complex subunit)	1
-5.15	0.35	1.21	inactive	Ino80 (INO80 complex subunit)	2
0.136	-0.74	-0.249	inactive	Ino80 (INO80 complex subunit)	3
-1.89	0.208	-1.42	inactive	CG11885	1
0.549	1.07	0.679	inactive	CG31265	1
-0.0918	0.567	-0.785	inactive	CG31265	2
-2.55	0.527	0.236	inactive	CG32687	1
-5.28	0.0147	0.237	inactive	CG32687	2
0.252	0.37	0.477	inactive	l(2)k10201 (lethal (2) k10201)	1
-0.627	-0.0235	-1.65	inactive	l(2)k10201 (lethal (2) k10201)	2
0.595	-1.8	0.0443	inactive	Ncc69 (sodium chloride cotransporter 69)	1
0.11	-4.28	-1.13	inactive	Ncc69 (sodium chloride cotransporter 69)	2
0.935	0.893	0.0652	inactive	Ncc69 (sodium chloride cotransporter 69)	3
0.583	-0.0421	1.47	inactive	PGRP-SD (Peptidoglycan recognition protein SD)	1
0.785	0.303	0.157	inactive	CG12301	1
-0.173	0.301	-0.00931	inactive	Galphao (G protein alpha subunit o)	1
0.236	0.149	-0.225	inactive	Galphao (G protein alpha subunit o)	2
0.197	1.05	0.408	inactive	CG14744	1
0.225	-1.53	-2.64	inactive	CG13575	1
0.366	-0.386	0.27	inactive	CG13575	2
-4.98	-0.191	-2.83	inactive	FoxP (Forkhead box P)	1
-0.392	-0.269	0.322	inactive	FoxP (Forkhead box P)	2
-1.09	-0.102	0.975	inactive	FoxP (Forkhead box P)	3
-4.7	-0.606	-1.91	active	Su(var)205 (Suppressor of variegation 205)	1
0.526	-0.32	0.558	inactive	Su(var)205 (Suppressor of variegation 205)	2
-1.56	-5.83	-1.49	active	RNaseX25 (Ribonuclease X25)	1
-2.94	-4.86	-10.2	active	RNaseX25 (Ribonuclease X25)	2
-2.43	0.206	0.357	inactive	Ih (I[[h]] channel)	1
-0.78	0.565	-0.447	inactive	Ih (I[[h]] channel)	2
0.597	-0.233	-1.65	inactive	Ih (I[[h]] channel)	3
-0.719	-0.397	0.0885	inactive	Ih (I[[h]] channel)	4
-0.0234	0.448	0.00468	inactive	Ih (I[[h]] channel)	5
-0.0758	0.431	-0.246	inactive	Ih (I[[h]] channel)	6
0.0947	-0.765	-0.518	inactive	Ih (I[[h]] channel)	7
-0.542	0.401	0.99	inactive	CG34357	1
1.76	-7.58	-0.546	inactive	CG34357	2
-1.49	-0.869	-4.88	inactive	CG34357	3
0.153	-0.0572	0.369	inactive	CG34357	4
-6.03	-0.63	1.43	inactive	CG34357	5

8 entries from above, reformatted:
| Wolbachia per cell robust z, rep 1 | Wolbachia per cell robust z, rep 2 | Wolbachia per cell robust z, rep 3 | outcome | Target gene | reagent |
| --- | --- | --- | --- | --- | --- |
| -5.15 | 0.35 | 1.21 | inactive | Ino80 (INO80 complex subunit) | 2 |
| 0.136 | -0.74 | -0.249 | inactive | Ino80 (INO80 complex subunit) | 3 |
| -1.89 | 0.208 | -1.42 | inactive | CG11885 | 1 |
| 0.549 | 1.07 | 0.679 | inactive | CG31265 | 1 |
| -0.0918 | 0.567 | -0.785 | inactive | CG31265 | 2 |
| -2.55 | 0.527 | 0.236 | inactive | CG32687 | 1 |
| -5.28 | 0.0147 | 0.237 | inactive | CG32687 | 2 |
| 0.252 | 0.37 | 0.477 | inactive | l(2)k10201 (lethal (2) k10201) | 1 |

The results go on:
Wolbachia per cell robust z, rep 1	Wolbachia per cell robust z, rep 2	Wolbachia per cell robust z, rep 3	outcome	Target gene	reagent
0.666	0.854	-0.674	inactive	Rgk2 (Rad, Gem/Kir family member 2)	1
1.12	0.695	-1.1	inactive	Rgk2 (Rad, Gem/Kir family member 2)	2
-0.54	0.502	-0.503	inactive	Rgk2 (Rad, Gem/Kir family member 2)	3
-0.826	-0.15	-0.505	inactive	Rgk2 (Rad, Gem/Kir family member 2)	4
0.572	1.23	-1.32	inactive	CG8389	1
-0.0231	0.403	1.28	inactive	CG8389	2
-0.959	0.782	-0.91	inactive	CG8389	3
-0.125	0.184	-0.379	inactive	ArgRS-m (Arginyl-tRNA synthetase, mitochondrial)	1
1.58	-1.13	0.698	inactive	GAA1 (Glycosylphosphatidylinositol anchor attachment 1)	1
-0.0188	-5.11	-0.514	inactive	CG10031	1
0.828	-0.485	0.207	inactive	CG42784	1
-0.326	-0.674	-0.691	inactive	CG42784	2
-0.418	-0.962	-1.22	inactive	CG42784	3
0.586	1.68	0.271	inactive	CG42784	4
-0.59	-1.83	-1.42	inactive	CG42784	5
1.11	-0.0623	0.815	inactive	CG42784	6
0.176	-0.00718	0.243	inactive	CG14684	1
0.657	0.581	-0.442	inactive	miple2 (midkine and pleiotrophin 2)	1
0.442	0.986	0.205	inactive	CG11902	1
0.928	0.557	1.2	inactive	CG11902	2
-0.488	-0.442	-8.96	inactive	Rabex-5 (Rabaptin-5-associated exchange factor for Rab5)	1
0.492	0.181	-1.23	inactive	Rabex-5 (Rabaptin-5-associated exchange factor for Rab5)	2
0.451	1.04	1.29	inactive	CG10140	1
0.161	0.726	0.952	inactive	CG10140	2
-1.3	0.868	0.753	inactive	CG17198	1
0.42	-3.48	0.799	inactive	SA2 (Stromalin 2)	1
-0.435	1.89	0.444	inactive	TTLL3B (Tubulin tyrosine ligase-like 3B)	1
-0.692	0.249	-0.624	inactive	abo (abnormal oocyte)	1
1.13	-0.942	0.218	inactive	Scox (Synthesis of cytochrome c oxidase)	1
0.6	0.744	1.03	inactive	Scox (Synthesis of cytochrome c oxidase)	2
